Pooled drug test results. Numbers come from NIAID ChemDB, via PubChem.

All rows: whole-cell or culture tests; agent: Mycobacterium tuberculosis

A number after MIC or MFC names an inhibition level or a share of isolates. ECn: concentration that inhibits the pathogen or its effect by n%. MIC bound comes from a single tested concentration. Percent inhibition refers to the dose given; in toxicity tests it is the harm to the cells. Neighbouring rows are from separate reports. An empty or dashed field is not shown.

structure	tested at	cells	setting	read-out	strain or isolate	method	result
CN(C)C/C=C(/c1ccc(Br)cc1)c1ccc(-c2ccc(Br)cc2)cc1	-	-	-	MIC	ALI 3082	-	17 µg/mL
CC1(C)CC(=O)c2c(nc(SSc3nc4c(c(-c5ccc(Br)cc5)c3C#N)C(=O)CC(C)(C)C4)c(C#N)c2-c2ccc(Br)cc2)C1	-	-	-	MIC bound	H37Rv	BACTEC	>12.5 µg/mL
CC1=CC(=O)N(CC2CCC3CC2C3(C)C)C1=O	-	-	-	MIC	H37Rv	-	≤20 µg/mL
Cc1onc(-c2ccccc2)c1C(=O)N1CCCN2C(=O)c3ccccc3C21	-	-	-	MIC bound	H37Rv	resazurin	>6.25 µg/mL
O=C1CSC(c2ccc(O)cc2)N1C(=O)NCCCN1c2ccccc2Sc2ccccc21	25 µg/mL	-	-	inhibition	H37Rv	agar	33%
C[C@@H]1CN(c2c(F)c(N)c3c(=O)c(C(=O)O)cn(C4CC4)c3c2F)C[C@H](C)N1	-	-	-	MIC	ATCC 35830	-	0.03 µg/mL
CC[C@H]1OC(=O)[C@H](C)[C@@H](O[C@H]2C[C@@](C)(OC)[C@@H](O)[C@H](C)O2)[C@H](C)[C@@H](O[C@@H]2O[C@H](C)C[C@H](N(C)C)[C@H]2O)[C@](C)(OC)C[C@@H](C)C(=O)[C@H](C)[C@@H](O)[C@]1(C)O	-	-	-	MIC90	18 strains (levofloxacin-resistant)	-	25 µg/mL
CO[C@H]1/C=C/O[C@@]2(C)Oc3c(C)c(O)c4c(O)c(c(/C=N/N5CCN(C)CC5)c(O)c4c3C2=O)NC(=O)/C(C)=C\C=C\[C@H](C)[C@H](O)[C@@H](C)[C@@H](O)[C@@H](C)[C@H](OC(C)=O)[C@@H]1C	-	-	-	MIC	TN565	-	>32 µg/mL
O=C(/N=C/c1cccc(O)c1)NCCCN1c2ccccc2Sc2ccccc21	25 µg/mL	-	-	inhibition	H37Rv	agar	30%
O=C1c2cc(F)ccc2-n2c1nc1ccccc1c2=O	-	-	-	MIC	H37Rv	-	<1 µg/mL
CCOC(=O)c1ccc2nc(-c3ccc(Cl)cc3)[nH]c2c1	-	-	-	MIC	H37Rv	resazurin / fluorescence	>100 µM
Cc1ccc(-c2cc(=O)c3cc(C)c(C)c(C(=O)O)c3o2)cc1N	12.5 µg/mL	-	-	inhibition	H37Rv	BACTEC	14%
CCOC(=O)c1ccc2c(c1)nc(-c1ccc(N(C)C)cc1)n2CCN1CCCOC1	-	-	-	MIC	H37Rv	resazurin / fluorescence	>100 µM
COc1cc2c(c(OC)c1OC)-c1c(cc3c(c1OC)OCO3)CC(C)C(C)(O)C2OC(=O)c1ccccc1	-	-	-	MIC	H37Rv	BACTEC	≥12.5 µg/mL
CCOC(=O)c1ccc2c(c1)nc(-c1ccc(N3CCOCC3)cc1)n2CCN1CCCOC1	-	-	-	MIC	H37Rv	resazurin / fluorescence	>100 µM
[N-]=[N+]=CC(=O)OC[C@@H]1NC(=O)[C@@H](COC(=O)C=[N+]=[N-])NC1=O	12.5 µg/mL	-	-	inhibition	H37Rv	BACTEC	4%
CCCCCCCOc1cccc(NC(=O)OCCN2CCCCC2)c1	-	-	-	MIC	My 331/88	-	8 µM
CCOC(=O)c1ccc2c(c1)nc(-c1ccc3c(c1)OCO3)n2CCN1CCCOC1	-	-	-	EC90	H37Rv	resazurin / fluorescence	>100 µM
NC(=O)c1cnccn1	-	-	7 d	EC50	H37Rv	-	<800 µg/mL
OC(c1cc(-c2ccc(C(F)(F)F)cc2)nc(-c2ccc(C(F)(F)F)cc2)c1)C1CCCCN1	-	-	-	MIC bound	H37Rv	resazurin	<6.25 µg/mL
C=C1CC(=O)N(CCCCCCCCC)C1=O	-	-	-	MIC	H37Ra	-	≤20 µg/mL
CN1CCN(c2ccc3c(c2)-n2c(nc4ccccc4c2=O)C3=O)CC1	-	-	-	MIC	MDR 10038	-	5 µg/mL
Cc1ccc(NC(=O)c2ccc(C(=O)Nc3ccc(C)c(Cl)c3)cc2)cc1Cl	-	-	-	MIC bound	H37Rv	BACTEC	>12.5 µg/mL
CN(C)CC=C(c1ccccc1)c1ccc(-c2ccc(Br)cc2)cc1	-	-	-	MIC	ALI 909	-	10 µg/mL
Brc1ccc2c(ccc3c2nnc2ncnn23)c1	-	-	-	MIC	H37Rv	resazurin	6.25 µg/mL
C[C@H]1COc2c(N3CCN(C)CC3)c(F)cc3c(=O)c(C(=O)O)cn1c23	-	-	-	MIC	ATCC 35830	-	0.25 µg/mL
CCCCCCCCN1C(=O)CC(C)(SCC(N)C(=O)O)C1=O	-	-	-	MIC	H37Rv	-	≤20 µg/mL
CN(C)C/C=C(/c1ccccc1)c1ccc(-c2ccc(Br)cc2)cc1	-	-	-	MIC	ALI 452	-	≤5 µg/mL
COc1c(N2CCNC(C)C2)c(F)cc2c(=O)c(C(=O)O)cn(C3CC3)c12	-	-	-	MIC50	23 strains (rifampin- isoniazid-susceptible)	-	0.1 µg/mL
O=C1c2cc(F)ccc2-n2c1nc1ccc(Cl)cc1c2=O	-	-	-	MIC	MDR 10038	-	<1 µg/mL
COc1cccc(/C=N/C(=O)NCCCN2c3ccccc3Sc3ccccc32)c1	50 µg/mL	-	-	inhibition	H37Rv	agar	42%
CCCCCCOc1ccccc1NC(=O)OCCN(C)C	-	-	-	MIC	My 331/88	-	62.5 µM
COc1ccc(C2OC3=C(Nc4cc(C)c(C)cc4N3)C2=O)cc1	12.5 µg/mL	-	-	inhibition	H37Rv	BACTEC	0%
CCCCCCCCCN1C(=O)CC(NCCCCCCC)C1=O	-	-	-	MIC	Clinical isolate (isoniazid-resistant)	-	≤20 µg/mL
CN=c1ncc2nc(-c3ccccc3)c(-c3ccccc3)n(C)c-2n1	-	-	-	MIC	H37Rv	BACTEC	≥12.5 µg/mL
C[C@@H]1CN(c2c(F)c(N)c3c(=O)c(C(=O)O)cn(C4CC4)c3c2F)C[C@H](C)N1	-	-	-	MIC	Isolate 16	-	0.13 µg/mL
CC1COc2c(N3CCN(C)CC3)c(F)cc3c(=O)c(C(=O)O)cn1c23	-	-	-	MIC90	206 isolates (susceptible)	-	1 µg/mL
CCOC(=O)c1ccc2nc(-c3ccc(C(F)(F)F)cc3)[nH]c2c1	-	-	-	EC50	H37Rv	resazurin / fluorescence	>100 µM
Nc1c(C(=O)NCc2ccccc2)c2nc3c(C(=O)NCc4ccccc4)ccc(Br)c3oc-2c(Br)c1=O	12.5 µg/mL	-	-	inhibition	H37Rv	BACTEC	20%
O=C(/N=C/c1ccccc1)NCCCN1c2ccccc2Sc2ccccc21	50 µg/mL	-	-	inhibition	H37Rv	agar	22%
CC[C@H]1OC(=O)[C@H](C)[C@@H](O[C@H]2C[C@@](C)(OC)[C@@H](O)[C@H](C)O2)[C@H](C)[C@@H](O[C@@H]2O[C@H](C)C[C@H](N(C)C)[C@H]2O)[C@](C)(O)C[C@@H](C)C(=O)[C@H](C)[C@@H](O)[C@]1(C)O	-	-	-	MIC	ATCC 35826	-	>8 µg/mL
CO/N=C1\CN(c2nc3c(cc2F)c(=O)c(C(=O)O)cn3C2CC2)CC1CN	-	-	-	MIC50	206 isolates (susceptible)	-	4 µg/mL
CC(=O)OC1=C2C(C[C@H]3[C@@H]4CC=C5C[C@@H](OC(C)=O)CC[C@]5(C)[C@H]4CC[C@]23C)C(C(=O)NCc2ccccc2)C(C(=O)O)C1	-	-	-	MIC bound	H37Rv	resazurin	>6.25 µg/mL
CO[C@H]1/C=C/O[C@@]2(C)Oc3c(C)c(O)c4c(O)c(c(/C=N/N5CCN(C6CCCC6)CC5)c(O)c4c3C2=O)NC(=O)/C(C)=C\C=C\[C@H](C)[C@H](O)[C@@H](C)[C@@H](O)[C@@H](C)[C@H](OC(C)=O)[C@@H]1C	-	-	-	MIC	1033	-	0.16 µg/mL
Cc1ccc(/C=N/NC(N)=S)nn1	12.5 µg/mL	-	-	inhibition	H37Rv	BACTEC	21%
CCN(CC)c1ccc(/C=N/Nc2ccnc3cc(Cl)ccc23)cc1	-	VERO	-	MIC	H37Rv	-	3.13 µg/mL
O=c1[nH][nH]c2ncccc12	-	-	-	MIC	H37Rv	BACTEC	≥12.5 µg/mL
CO[C@H]1/C=C/O[C@@]2(C)Oc3c(C)c(O)c4c(O)c(c(/C=N/N5CCN(C)CC5)c(O)c4c3C2=O)NC(=O)/C(C)=C\C=C\[C@H](C)[C@H](O)[C@@H](C)[C@@H](O)[C@@H](C)[C@H](OC(C)=O)[C@@H]1C	-	-	-	MIC	Isolate 10	-	>32 µg/mL
Cc1cc(NN)c2ccc(Cl)cc2n1	12.5 µg/mL	VERO	-	inhibition	H37Rv	-	97%
CO[C@H]1/C=C/O[C@@]2(C)Oc3c(C)c(O)c4c(O)c(c5c(c4c3C2=O)NC2(CCN(CC(C)C)CC2)N=5)=NC(=O)/C(C)=C\C=C\[C@H](C)[C@H](O)[C@@H](C)[C@@H](O)[C@@H](C)[C@H](OC(C)=O)[C@@H]1C	-	-	-	MIC	H37Rv	-	0.016 µg/mL
CN(C)C/C=C(\c1ccc(O)cc1)c1ccc(-c2ccccc2)cc1	-	-	-	MIC	ALI 282	-	49 µg/mL
NC1CCN(c2c(F)cc3c(=O)c(C(=O)O)cn(C4CC4)c3c2Cl)C1	-	-	-	MBC	ATCC 35820	-	0.125 µg/mL
C[C@]1(COc2ccc(N3CCC(Oc4ccc(OC(F)(F)F)cc4)CC3)cc2)Cn2cc([N+](=O)[O-])nc2O1	-	-	-	MIC90	36 strains (rifampicin-resistant)	-	0.012 µg/mL
CCOC(=O)c1ccc2c(c1)C(=O)c1nc3ccccc3c(=O)n1-2	-	-	-	MIC	H37Rv	-	<0.4 µg/mL
COc1ccc(/C=N/Nc2ccnc3cc(Cl)ccc23)c2ccccc12	12.5 µg/mL	VERO	-	inhibition	H37Rv	-	99%
Cc1ccc(N2CCOS(=O)OCC2)cc1	-	-	-	MIC bound	H37Rv	BACTEC	>12.5 µg/mL
CCOC(=O)c1ccc2c(c1)nc(-c1ccc(O)cc1)n2CCN1CCCC1=O	-	-	-	MIC	H37Rv	resazurin / fluorescence	>100 µM
Cc1cc(C)c2c(=O)n(-c3ccccc3C)c(=S)n(-c3ccccc3C)c2n1	12.5 µg/mL	-	-	inhibition	H37Rv	BACTEC	2%
Cc1ccc2nc3n(c(=O)c2c1)-c1ccccc1C3=O	-	-	-	MIC	H37Rv	-	1 µg/mL
CCCCCOc1ccc(NC(=O)OCCN2CCCCC2)cc1	-	-	-	MIC	My 331/88	-	32 µM
CCCCCCCCCCCCCOc1ccc(S(=O)(=O)/N=C(\N)NC(N)=NCCCCCCCCCCCC)cc1.Cl	12.5 µg/mL	-	-	inhibition	H37Rv	BACTEC	0%
CCN(CC)c1ccc(/C=N/Nc2cc(C)nc3ccc(C4CCCCC4)cc23)cc1	12.5 µg/mL	VERO	-	inhibition	H37Rv	-	100%
CO[C@H]1/C=C/O[C@@]2(C)Oc3c(C)c(O)c4c(=O)c(c5oc6cc(N7CCN(CC(C)C)CC7)cc(=O)c6nc5c4c3=C2O)NC(=O)/C(C)=C\C=C\[C@H](C)[C@H](O)[C@@H](C)[C@@H](O)[C@@H](C)[C@H](OC(C)=O)[C@@H]1C	-	-	-	MIC	Erdman	-	0.008 µg/mL
CC[C@H]1OC(=O)[C@H](C)[C@@H](O[C@H]2C[C@@](C)(OC)[C@@H](O)[C@H](C)O2)[C@H](C)[C@@H](O[C@@H]2O[C@H](C)C[C@H](N(C)C)[C@H]2O)[C@](C)(OC)C[C@@H](C)C(=O)[C@H](C)[C@@H](O)[C@]1(C)O	-	-	-	MIC	ATCC35838	-	8 µg/mL
CN(C)CC=C(c1ccc(Br)cc1)c1ccc(-c2ccc(Br)cc2)cc1	-	-	-	MIC	ALI 258	-	≤4 µg/mL
CCOC(=O)c1ccc2nc(-c3ccc([N+](=O)[O-])cc3)[nH]c2c1	-	-	-	MIC	H37Rv	resazurin / fluorescence	>100 µM
CCCCN1C(=O)N(c2ccc(OCC)cc2)C2N(CCCC)C1C(C)(C)C2(C)C	12.5 µg/mL	-	-	inhibition	H37Rv	BACTEC	44%
CCCCCOc1ccc(NC(=O)OCCN2CCCCCC2)cc1	-	-	-	MIC	My 331/88	-	32 µM
O=C(NCCCN1c2ccccc2Sc2ccccc21)N1C(=O)/C(=C\c2cccc(Cl)c2)SC1c1cccc(Cl)c1	50 µg/mL	-	-	inhibition	H37Rv	agar	80%
CCOc1ccc2c(N/N=C/c3c(OC)ccc4ccccc34)cc(C)nc2c1	-	VERO	-	MIC	H37Rv	-	6.25 µg/mL
NNC(=O)c1ccncc1	-	-	-	MIC90	22 strains (rifampin- isoniazid-resistant)	-	>100 µg/mL
N#CCC(=O)N/N=C/c1ccc([N+](=O)[O-])o1	12.5 µg/mL	-	-	inhibition	H37Rv	BACTEC	88%
C[C@H]1COc2c(N3CCN(C)CC3)c(F)cc3c(=O)c(C(=O)O)cn1c23	-	-	-	MIC	Isolate 13	-	0.25 µg/mL
O=C1Nc2c(Cl)cc(Cl)cc2/C1=N/N=C/c1ccco1	-	-	-	MIC bound	H37Rv	BACTEC	>12.5 µg/mL
NCC[C@H](O)C(=O)N[C@@H]1C[C@H](N)[C@@H](O[C@H]2O[C@H](CN)[C@@H](O)[C@H](O)[C@H]2O)[C@H](O)[C@H]1O[C@H]1O[C@H](CO)[C@@H](O)[C@H](N)[C@H]1O	-	-	-	EC50	H37Rv	resazurin / fluorescence	>100 µM
CCCCCCCCOc1cccc(NC(=O)OCCN(C)C)c1	-	-	-	MIC	My 331/88	-	4 µM

The last 7 rows once more:

structure	tested at	cells	setting	read-out	strain or isolate	method	result
CCOc1ccc2c(N/N=C/c3c(OC)ccc4ccccc34)cc(C)nc2c1	-	VERO	-	MIC	H37Rv	-	6.25 µg/mL
NNC(=O)c1ccncc1	-	-	-	MIC90	22 strains (rifampin- isoniazid-resistant)	-	>100 µg/mL
N#CCC(=O)N/N=C/c1ccc([N+](=O)[O-])o1	12.5 µg/mL	-	-	inhibition	H37Rv	BACTEC	88%
C[C@H]1COc2c(N3CCN(C)CC3)c(F)cc3c(=O)c(C(=O)O)cn1c23	-	-	-	MIC	Isolate 13	-	0.25 µg/mL
O=C1Nc2c(Cl)cc(Cl)cc2/C1=N/N=C/c1ccco1	-	-	-	MIC bound	H37Rv	BACTEC	>12.5 µg/mL
NCC[C@H](O)C(=O)N[C@@H]1C[C@H](N)[C@@H](O[C@H]2O[C@H](CN)[C@@H](O)[C@H](O)[C@H]2O)[C@H](O)[C@H]1O[C@H]1O[C@H](CO)[C@@H](O)[C@H](N)[C@H]1O	-	-	-	EC50	H37Rv	resazurin / fluorescence	>100 µM
CCCCCCCCOc1cccc(NC(=O)OCCN(C)C)c1	-	-	-	MIC	My 331/88	-	4 µM